Results: PubChem BioAssay AID588726 (The Scripps Research Institute Molecular Screening Center, 2011)
Only a part is listed here, and it is no random draw. Activity calls are given as the source filed them. No stated cut-off is given here; in the data, active means inhibition above about 27%; inactive means the rest.

Protein sequences, listed by entry. Tags and fused reporters are not part of them.
UniProt P9WQA3, whole entry: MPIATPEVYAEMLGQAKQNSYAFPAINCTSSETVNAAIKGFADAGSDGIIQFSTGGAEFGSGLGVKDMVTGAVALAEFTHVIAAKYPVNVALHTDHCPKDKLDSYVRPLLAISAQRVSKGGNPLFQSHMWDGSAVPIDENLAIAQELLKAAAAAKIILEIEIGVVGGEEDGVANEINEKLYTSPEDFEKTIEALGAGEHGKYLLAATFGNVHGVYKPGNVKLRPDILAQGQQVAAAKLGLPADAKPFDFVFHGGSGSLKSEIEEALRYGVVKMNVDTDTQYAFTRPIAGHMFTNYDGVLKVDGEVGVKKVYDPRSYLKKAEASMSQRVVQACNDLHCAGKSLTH

Biological target: Fructose-bisphosphate aldolase (Mycobacterium tuberculosis (strain ATCC 25618 / H37Rv)) (UniProt P9WQA3)
Assay: Mtb FBA enzyme inhibitors, primary screen, biochemical, fluorescence, strain H37Rv (AID 588726);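 further: 0% = vehicle and 100% = reference inhibitor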
Details: purified M. tuberculosis FBA, fluorescence read-out; at 1 µM; stronger effect = higher value

SMILES	inhibition
COc1ccc(C(=O)NCC2(N3CCCCC3)CCCCC2)cc1	inactive: 1.47%
CCC(c1nnnn1C1CCCC1)N1CCC(n2c(=O)[nH]c3ccccc32)CC1 (configuration not stated)	inactive: 0.87%
CC(C)(C)OC(=O)N1CCC(N(C(=O)c2ccccc2)c2ccc(F)cc2)CC1	inactive: -0.95%
COc1ccc(C(=O)NCC2(N3CCCCC3)CCCCC2)c(OC)c1OC	inactive: 6.58%
O=C(NCC1(N2CCCCC2)CCCCC1)c1ccc(=O)[nH]c1	inactive: 2.35%
CCCCn1nnnc1C(c1cccs1)N1CCC(n2c(=O)[nH]c3ccccc32)CC1 (configuration not stated)	inactive: 1.07%
O=C(NCC1(N2CCCCC2)CCCCC1)c1cccs1	inactive: 2.61%
CCCCn1nnnc1C(CC)N1CCC(n2c(=O)[nH]c3ccccc32)CC1 (configuration not stated)	inactive: 3.38%
CSc1ccccc1C(=O)NCC1(N2CCCCC2)CCCCC1	inactive: -1.21%
Cc1cccc(NC2(C#N)CCN(Cc3ccccc3)CC2)c1	inactive: -0.02%
O=c1[nH]c2ccccc2n1C1CCN(C(c2ccccc2OC(F)(F)F)c2nnnn2C2CCCCC2)CC1 (configuration not stated)	inactive: 1.41%
O=C(NCC1(N2CCCCC2)CCCCC1)c1ccc(Cl)nc1	inactive: 0.8%
Cc1cc(C)cc(N(C(=O)c2ccccc2)C2CCN(C(=O)OC(C)(C)C)CC2)c1	inactive: 1.7%
O=C(NCC1(N2CCOCC2)CCCCC1)c1cc2ccccc2o1	inactive: 0.02%
O=C(OC1CN2CCC1CC2)C1c2ccccc2Oc2ccccc21 (configuration not stated)	inactive: 2.01%
O=c1[nH]c2ccccc2n1C1CCN(C(c2cc3ccccc3o2)c2nnnn2C2CCCCC2)CC1 (configuration not stated)	inactive: 0.34%
O=C(NCC1(N2CCCCC2)CCCCC1)c1ccc(Cl)s1	inactive: -0.96%
N#CC1(Nc2ccccc2)CCN(Cc2ccccc2)CC1	inactive: 1.67%
COc1ccc(Cl)cc1C(=O)NCC1(N2CCOCC2)CCCCC1	inactive: 1.87%
CCOC(=O)N1CCC(Nc2ccc(OC)cc2)CC1	inactive: -0.57%
CCCCn1nnnc1C(c1ccc(OC)cc1)N1CCC(n2c(=O)[nH]c3ccccc32)CC1 (configuration not stated)	inactive: -1.31%
CC(C)(C)n1nnnc1C(c1ccccc1)N1CCC(n2c(=O)[nH]c3ccccc32)CC1 (configuration not stated)	inactive: 0.73%

SMILES	inhibition
O=C1CCN(Cc2ccccc2)CC1	inactive: 5.69%
CCOc1ccc(C)cc1CN(CCCl)CCCl	inactive: 1.31%
O=C(NCC1(N2CCCCC2)CCCCC1)c1ccc(F)cc1	inactive: -5.14%
CCCCn1nnnc1C(c1cc2ccccc2o1)N1CCC(n2c(=O)[nH]c3ccccc32)CC1 (configuration not stated)	inactive: -2.75%
O=P1(N(CCCl)CCCl)SCCCS1	inactive: -0.63%
CCCCOc1ccc(C(=O)NCC2(N3CCOCC3)CCCCC2)cc1	inactive: -0.51%
COc1ccc(NC2CCN(CCc3ccccc3)CC2)c(OC)c1	inactive: 1.63%
CCOC(=O)N1CCC(Nc2ccc(F)cc2)CC1	inactive: 5.06%
O=c1[nH]c2ccccc2n1C1CCN(C(c2ccccc2)c2nnnn2C2CCCCC2)CC1 (configuration not stated)	inactive: -3.46%
COc1cc(C(=O)NCC2(N(C)C)CCCCC2)ccc1OC(F)F	inactive: 4.23%
CCOC(=O)N1CCC(Nc2cccc(C)c2)CC1	inactive: 1.16%
O=c1[nH]c2ccccc2n1C1CCN(C(c2cccc3ccccc23)c2nnnn2C2CCCC2)CC1 (configuration not stated)	inactive: -1.96%
CC(C)(C)n1nnnc1C(c1ccccc1OC(F)(F)F)N1CCC(n2c(=O)[nH]c3ccccc32)CC1 (configuration not stated)	inactive: -0.78%
O=C(NCC1(N2CCCCC2)CCCCC1)c1ccc(OC(F)F)cc1	inactive: -0.66%
CCN1CCC(Nc2ccc(Cl)cc2)CC1	inactive: 1.18%
N#CC1(Nc2ccccc2)CCN(CCc2ccccc2)CC1	inactive: 1.6%
O=c1[nH]c2ccccc2n1C1CCN(C(c2ccccc2OC(F)(F)F)c2nnnn2C2CCCC2)CC1 (configuration not stated)	inactive: -1.49%
O=C(NCC1(N2CCCCC2)CCCCC1)c1cccc([N+](=O)[O-])c1	inactive: 1.97%
CSc1ccc(C(=O)NCC2(N3CCOCC3)CCCCC2)cc1	inactive: 17.1%
O=C(NCC1(N2CCCCC2)CCCCC1)c1cccc(C(F)(F)F)c1	inactive: -8.43%
COc1cc(C(=O)NCC2(N3CCCCC3)CCCCC2)ccc1OC(F)F	inactive: 2.31%
O=C(NCC1(N2CCOCC2)CCCCC1)c1cc(=O)[nH]c2ccccc12	inactive: 8.36%

SMILES	inhibition
CCCCn1nnnc1C(c1cccc2ccccc12)N1CCC(n2c(=O)[nH]c3ccccc32)CC1 (configuration not stated)	inactive: -4.06%
CN1CCN(CCOC(=O)C(O)(c2ccccc2)c2ccccc2)CC1	inactive: 2%
CC(C)c1ccc(C(=O)NCC2(N3CCOCC3)CCCCC2)cc1	inactive: 0.86%
COc1ccc(NC2CCN(C(=O)OC(C)(C)C)CC2)cc1	inactive: 1.13%
CCCCn1nnnc1C(c1ccccc1OC(F)(F)F)N1CCC(n2c(=O)[nH]c3ccccc32)CC1 (configuration not stated)	inactive: 0.28%
CC(C)c1ccc(NC2CCN(C(=O)OC(C)(C)C)CC2)cc1	inactive: -0.57%
COc1ccc(CN(CCCl)CCCl)cc1Cl	inactive: -0.3%
CN(C)c1cccc(C(=O)NCC2(N3CCCCC3)CCCCC2)c1	inactive: 8.23%
COc1cc(OC)c(C(=O)NCC2(N(C)C)CCCCC2)cc1OC	inactive: 7.44%
CCC(c1nnnn1C(C)(C)C)N1CCC(n2c(=O)[nH]c3ccccc32)CC1 (configuration not stated)	inactive: 1.91%
O=C(NCC1(N2CCOCC2)CCCCC1)c1cc(F)c(F)cc1Cl	inactive: 2.06%
CCCCn1nnnc1C(c1ccnc2ccccc12)N1CCC(n2c(=O)[nH]c3ccccc32)CC1 (configuration not stated)	inactive: -0.08%
O=C(NCC1(N2CCCCC2)CCCCC1)c1cncc(Br)c1	inactive: -1.15%
CN1CCC(Nc2cccc(F)c2)CC1	inactive: 5.52%
COc1ccc(C(c2nnnn2C2CCCC2)N2CCC(n3c(=O)[nH]c4ccccc43)CC2)cc1 (configuration not stated)	inactive: 5.37%
Cc1ccc(C(=O)NCC2(N(C)C)CCCCC2)o1	inactive: 5.03%
CCCOc1ccc(C(=O)NCC2(N(C)C)CCCCC2)cc1OC	inactive: -0.38%
CCCCn1nnnc1C(c1ccccc1)N1CCC(n2c(=O)[nH]c3ccccc32)CC1 (configuration not stated)	inactive: -1.78%
COc1cc(C(=O)NCC2(N3CCOCC3)CCCCC2)cc(OC)c1C	inactive: -0.91%
O=C(NCC1(N2CCOCC2)CCCCC1)c1cc(Br)ccc1Cl	inactive: 0.97%
O=c1[nH]c2ccccc2n1C1CCN(C(c2cccs2)c2nnnn2C2CCCCC2)CC1 (configuration not stated)	inactive: -1.92%
COc1ccc(C(=O)NCC2(N3CCOCC3)CCCCC2)cc1OC	inactive: 1.05%

SMILES	inhibition
O=c1[nH]c2ccccc2n1C1CCN(C(c2ccnc3ccccc23)c2nnnn2C2CCCC2)CC1 (configuration not stated)	inactive: -0.04%
COc1cccc(C(c2nnnn2C(C)(C)C)N2CCC(n3c(=O)[nH]c4ccccc43)CC2)c1OC (configuration not stated)	inactive: -1.03%
CCOC(=O)N1CCC(Nc2ccc(C)cc2)CC1	inactive: 1.13%
N/C(=N\O)c1c(N)no[n+]1[O-]	inactive: -0.75%
O=C(OC1CN2CCC1CC2)C1c2ccccc2C=Cc2ccccc21 (configuration not stated)	inactive: 10.2%
O=c1[nH]c2ccccc2n1C1CCN(C(c2cccs2)c2nnnn2C2CCCC2)CC1 (configuration not stated)	inactive: 1.77%
CCCCn1nnnc1C(c1cccc(OC)c1OC)N1CCC(n2c(=O)[nH]c3ccccc32)CC1 (configuration not stated)	inactive: 0.33%
N#Cc1ccc(C(=O)NCC2(N3CCCCC3)CCCCC2)cc1	inactive: -1.38%
CC(C)(C)OC(=O)N1CCC(N(C(=O)c2ccccc2)c2ccc(Cl)cc2)CC1	inactive: 1.57%
CN(C)C1(CNC(=O)c2cccc(C#N)c2)CCCCC1	inactive: 4.68%
c1ccc(CN2CCC(Nc3ccccc3)CC2)cc1	inactive: 3.83%
Cc1cc(N(CCCl)CCCl)ccc1C=O	inactive: -1.59%
O=c1[nH]c2ccccc2n1C1CCN(C(c2ccccc2)c2nnnn2C2CCCC2)CC1 (configuration not stated)	inactive: 2.17%
CCCN1CCC(Nc2cc(OC)cc(OC)c2)CC1	inactive: 1.59%
CC(C)(C)n1nnnc1C(c1cccc2ccccc12)N1CCC(n2c(=O)[nH]c3ccccc32)CC1 (configuration not stated)	inactive: -3.57%
CC(=O)N(c1ccccc1)C1CCNCC1	inactive: 0.71%
COc1cccc(C(c2nnnn2C2CCCCC2)N2CCC(n3c(=O)[nH]c4ccccc43)CC2)c1OC (configuration not stated)	inactive: -0.1%
CCC(c1nnnn1C1CCCCC1)N1CCC(n2c(=O)[nH]c3ccccc32)CC1 (configuration not stated)	inactive: 0.82%
O=c1[nH]c2ccccc2n1C1CCN(C(c2ccnc3ccccc23)c2nnnn2C2CCCCC2)CC1 (configuration not stated)	inactive: 2.2%
COc1cc(OC)cc(C(=O)NCC2(N3CCCCC3)CCCCC2)c1	inactive: -0.39%
Cc1ccc(C(=O)NCC2(N3CCCCC3)CCCCC2)o1	inactive: 1.82%
Fc1ccccc1NC1CCN(Cc2ccccc2)CC1	inactive: 4.23%

SMILES	inhibition
Cc1ccc(NC2(C#N)CCN(Cc3ccccc3)CC2)cc1	inactive: 0.37%
Cc1ccccc1NC1(C#N)CCN(Cc2ccccc2)CC1	inactive: -2.97%
CC(C)(C)n1nnnc1C(c1ccnc2ccccc12)N1CCC(n2c(=O)[nH]c3ccccc32)CC1 (configuration not stated)	inactive: -2.02%
CCN1CCC(Nc2cccc(F)c2)CC1	inactive: 5.56%
COc1ccc(C(c2nnnn2C2CCCCC2)N2CCC(n3c(=O)[nH]c4ccccc43)CC2)cc1 (configuration not stated)	inactive: -1.56%
O=C(NCC1(N2CCCCC2)CCCCC1)c1ccco1	inactive: 0.15%
Cn1c(=O)[nH]cc(N(CCCl)CCCl)c1=O	inactive: -3.95%
CN(C)c1ccc(C(=O)NCC2(N3CCCCC3)CCCCC2)cc1	inactive: -1.41%
CCOc1ncccc1C(=O)NCC1(N2CCOCC2)CCCCC1	inactive: 1.07%
CN1CCC(Nc2ccc(F)c(Cl)c2)CC1	inactive: 1.86%
CC(C)(C)OC(=O)N1CCC(Nc2ccccc2)CC1	inactive: 5.44%
O=C(O)C1(Nc2ccccc2)CCN(Cc2ccccc2)CC1	inactive: 2.65%
CCCOc1ccc(C(=O)NCC2(N(C)C)CCCCC2)cc1	inactive: -3.77%
O=c1[nH]c2ccccc2n1C1CCN(C(c2cc3ccccc3o2)c2nnnn2C2CCCC2)CC1 (configuration not stated)	inactive: -3.15%
COc1cc(OC)cc(C(=O)NCC2(N3CCOCC3)CCCCC2)c1	inactive: -4.25%
COc1cccc(C(c2nnnn2C2CCCC2)N2CCC(n3c(=O)[nH]c4ccccc43)CC2)c1OC (configuration not stated)	inactive: -0.24%
COc1cccc(C(=O)N(c2cc(C)cc(C)c2)C2CCN(C(=O)OC(C)(C)C)CC2)c1	inactive: 1%
CCC(CO)(C(=O)OC1CN2CCC1CC2)c1ccccc1 (configuration not stated)	inactive: 3.44%
CN1CCC(Nc2ccc(Cl)cc2)CC1	inactive: 0.76%
